Experimental data: PubChem BioAssay AID504761 (Drosophila RNAi Screening Center, 2011)

Screen: 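Fly genes whose silencing reduces dengue virus type 2 infection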 (primary screen)
System: D.Mel-2 cells from Drosophila
Knock-down reagent: long dsRNA against Drosophila genes
Conditions: infection with dengue virus type 2; dose and infection time not stated
Read-out: 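Cells stained for dengue envelope protein and imaged; percent of infected cells per well on duplicate plates, ranked by infection, with stained nuclei counted for cell number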
Reading the numbers: infection score: higher = more virus-infected cells
Active means: 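Very low infection ranking in both replicate wells (chance probability at most 0.065), then a retest showing infection dropped 1.5-fold or more at p below 0.05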
Meaning of the calls: active = confirmed: knock-down lowers infection; inactive = not picked or not confirmed
The screen tested about 22,000 reagents; below is an unselected part of those with a known target gene and a result. In the full data, 116 (0.52%) got an active call. 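Calls depend on retest data that are not deposited; infection was ranked per plate without normalising between plates; the unit of the infection score is not given.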 Unmarked entries are inactive. The numbers tell different reagents against one gene apart. Not all columns of the deposit are shown. Not stated in the record: the amount of reagent, the time to read-out.

| target gene | reagent no. | infection score, replicate 1 | infection score, replicate 2 |
| --- | --- | --- | --- |
| CG17575 | 1 | 7.22 | 24.5 |
| CG17575 | 2 | 1.74 | 4.44 |
| Invadolysin | 1 | 2.05 | 2.79 |
| nst (nesthocker) | 1 | 11.4 | 5.41 |
| veg (retired record) | 1 | 15.7 | 6.05 |
| CG30286 | 1 | 12.5 | 19.5 |
| CG5953 | 1 | 1.11 | – |
| CG5953 | 2 | 12.9 | 5.54 |
| wisp (wispy) | 1 | 2.07 | 5.61 |
| wisp (wispy) | 2 | 1.19 | 2.33 |
| CycT (Cyclin T) | 1 | 12.6 | 19.8 |
| CycT (Cyclin T) | 2 | 1.23 | 2.18 |
| CycT (Cyclin T) | 3 | 25.2 | 9.82 |
| Fdx1 (Ferredoxin 1) | 1 | 0.96 | 6.71 |
| Fdx1 (Ferredoxin 1) | 2 | 10.6 | 18.8 |
| CG15923 | 1 | 4.35 | 6.53 |
| CG15740 | 1 | 1.53 | 10.9 |
| CG15740 | 2 | 9.8 | 1.11 |
| psq (pipsqueak) | 1 | 3.13 | 2.49 |
| mnd (minidiscs) | 1 | 4.47 | 2.14 |
| emc (extra macrochaetae) | 1 | 1.28 | 6.69 |
| emc (extra macrochaetae) | 2 | 8.09 | 13.4 |
| CG1889 | 1 | 3.48 | 3.98 |
| CG1889 | 2 | 25.8 | 6.3 |
| slbo (slow border cells) | 1 | 2.59 | 19.3 |
| slbo (slow border cells) | 2 | 12.4 | 8.46 |
| CG42562 | 1 | 8.05 | 15.8 |
| Cyp313a5 (Cytochrome P450 313a5) | 1 | 14.7 | 4.61 |
| eEF2 (eukaryotic translation elongation factor 2) | 1 | 1.28 | 3 |
| Indy (I'm not dead yet) | 1 | 7.32 | 12.1 |
| kek5 (kekkon 5) | 1 | 1.36 | 1.15 |
| kek5 (kekkon 5) | 2 | 1.49 | 7.54 |
| Nagk (N-acetylglucosamine kinase) | 1 | 15.9 | 13.4 |
| nanos | 1 | 1.93 | 1.15 |
| nanos | 2 | 1.08 | 1.4 |
| PAN2 (Poly(A)-binding protein-dependent poly(A) ribonuclease 2) | 1 | 15.2 | 7.53 |
| CG11029 | 1 | 6.21 | 1.19 |
| CG8405 | 1 | 0.17 | 0.13 |
| CG8405 | 2 | 29.5 | 11.4 |
| CG1648 | 1 | 1.1 | 1.22 |
| CG1648 | 2 | 6.33 | 34.2 |
| Ibf1 (Insulator binding factor 1) | 1 | 5.53 | 7.36 |
| subdued | 1 | 9.31 | 2.46 |
| CG17508 | 1 | 2.75 | 1.17 |
| Tbcb (Tubulin-binding cofactor B) | 1 | 8.94 | – |
| Pak (p21-activated kinase) | 1 | 13.5 | 4.65 |
| Pak (p21-activated kinase) | 2 | 1.47 | 1.95 |
| CG7264 | 1 | 2.56 | 2.49 |
| CG7264 | 2 | 4.81 | 4.18 |
| CG8399 | 1 | 10.6 | 26.4 |
| Adar (Adenosine deaminase acting on RNA) | 1 | 8.2 | 12.2 |
| Cdc23 (Cell division cycle 23) | 1 | 15.9 | 1.17 |
| CG15093 | 1 | 2.48 | 14.2 |
| CG15093 | 2 | 5.3 | 4.14 |
| p38a (p38a MAP kinase) | 1 | 16.6 | 8.4 |
| bero (belly roll) | 1 | 3.43 | – |
| bero (belly roll) | 2 | 6.32 | 3.08 |
| CG8321 | 1 | 8.13 | 23 |

Reformatted: results already given.
target gene	reagent no.	infection score, replicate 1	infection score, replicate 2
Fdx1 (Ferredoxin 1)	2	10.6	18.8
CG15923	1	4.35	6.53
CG15740	1	1.53	10.9
